Experimental findings from US10233179B2, “Thiazoles and uses thereof” (AbbVie Inc., priority 2013, dated 2019) are described below.

SMILES strings stand for the structures.

The test system of this data set is RSV (Group A, Long Strain). In words: Antiviral cytopathic effect (CPE) protection assay, MTT readout. Also noted: key: NW: No window. In kind it is cell-based, human respiratory syncytial virus (RSV). As to conditions: ratio of MTT TD50 to RSV EC50; NW = no window. On the procedure:
HEp-2 cells and RSV (Group A, Long Strain) were obtained from the American Type Culture Collection (Manassas, Va.).
A cytopathic effect (CPE) protection assay was performed to determine the ability of a compound to protect the cells from viral infection and thus the CPE induced by viral infection. 96-Well plates were first seeded with 3×10^3 HEp-2 cells per well in Dulbecco's modified Eagle's medium (DMEM) containing 10% fetal bovine serum (FBS). One day after the cells were seeded, they were preincubated with serial dilutions of compounds prepared in 100 μL assay medium (DMEM mixed with F12 medium at a 1:1 ratio, supplemented with 2% FBS and 1 mM sodium pyruvate) for 1 hour at 37° C. 100 μL of assay medium containing 0.2 multiplicity of infection (MOI) of RSV was then added to each well of cells. In addition to wells containing infected cells incubated with compounds, each plate also contained replicates of two kinds of controls: (1) Virus control contained cells infected with 0.2 MOI of RSV in assay medium, (2) Uninfected cell control contained cells incubated with assay medium only. After 4 days of incubation at 37° C., the viability of cells was assessed using MTT (Thiazolyl blue tetrazolium bromide, Sigma). A stock solution of MTT, at a concentration of 4 mg/mL in phosphate-buffered saline, was added to all wells at 25 μL per well. Plates were further incubated for 4 hours, and each well was then treated with 50 μL of a solution containing 20% sodium dodecyl sulfate (SDS) and 0.02 N HCl. After an overnight incubation, the plates were measured on a BioTek® microtiter plate reader at wavelengths of 570 nm and 650 nm. The MTT detection is based on the fact that viable (uninfected) cells can reduce the tetrazolium salts into colored formazan products, which can then be quantitated by spectrometry. Based on the spectrometric absorbance of each sample, the percent of protection from CPE, which is an indicator of protection from viral infection, can be calculated for each compound and the 50% effective concentrations (EC50) can be calculated using a nonlinear regression curve fitting equation provided by the GraphPad Prism® 4 software.
Compounds were tested to determine both their antiviral and toxicity to determine their therapeutic window. Determination of the EC50 and TD50 of these active compounds were repeated one additional time to confirm the window.
For orientation: Cytopathic effects are the visible damage that an infection or toxin causes in cultured cells.
As for `FC1(F)CCC(CN(Cc2cccn2-c2nccs2)Cc2cccn2-c2nccs2)CC1` [Example 57, 1-(4,4-difluorocyclohexyl)-N,N-bis{[1-(1,3-thiazol-2-yl)-1H-pyrrol-2-yl]methyl}methanamine], the “Window (TD50/EC50)” value stood at 64.
For `FC(F)(F)Cn1cc(CN(Cc2cccn2-c2nccs2)Cc2cccn2-c2nccs2)cn1` [Example 58, 1-[1-(1,3-thiazol-2-yl)-1H-pyrrol-2-yl]-N-{[1-(1,3-thiazol-2-yl)-1H-pyrrol-2-yl]methyl}-N-{[1-(2,2,2-trifluoroethyl)-1H-pyrazol-4-yl]methyl}methanamine], the “Window (TD50/EC50)” value came out at 94.
Regarding `FC(F)n1ccnc1CN(Cc1cccn1-c1nccs1)Cc1cccn1-c1nccs1` [Example 59, 1-[1-(difluoromethyl)-1H-imidazol-2-yl]-N,N-bis{[1-(1,3-thiazol-2-yl)-1H-pyrrol-2-yl]methyl}methanamine], the “Window (TD50/EC50)” value came to 9.
Regarding `c1cncc(C2(CCN(Cc3cccn3-c3nccs3)Cc3cccn3-c3nccs3)CC2)c1` [Example 60, 2-[1-(pyridin-3-yl)cyclopropyl]-N,N-bis{[1-(1,3-thiazol-2-yl)-1H-pyrrol-2-yl]methyl}ethanamine], the “Window (TD50/EC50)” value is reported as greater than 117.
Consider `c1cc(CN(Cc2cccn2-c2nncs2)C[C@H]2CCOC2)n(-c2nncs2)c1` [Example 61, 1-[(3R)-tetrahydrofuran-3-yl]-N,N-bis{[1-(1,3,4-thiadiazol-2-yl)-1H-pyrrol-2-yl]methyl}methanamine], for which the “Window (TD50/EC50)” value was “NW”.
As to `C[C@H](c1ccc(F)cc1)N(Cc1cccn1-c1nccs1)Cc1cccn1-c1nccs1` [Example 62, (1R)-1-(4-fluorophenyl)-N,N-bis{[1-(1,3-thiazol-2-yl)-1H-pyrrol-2-yl]methyl}ethanamine], the “Window (TD50/EC50)” value is “NW”.
Turning to `c1coc(CN(Cc2cccn2-c2nccs2)Cc2cccn2-c2nccs2)c1` [Example 63, 1-(furan-2-yl)-N,N-bis{[1-(1,3-thiazol-2-yl)-1H-pyrrol-2-yl]methyl}methanamine], the “Window (TD50/EC50)” value came out at 77.
For the molecule `CC(Cc1cccs1)N(Cc1cccn1-c1nccs1)Cc1cccn1-c1nccs1` (centres unmarked) [Example 64, N,N-bis{[1-(1,3-thiazol-2-yl)-1H-pyrrol-2-yl]methyl}-1-(thiophen-2-yl)propan-2-amine], the “Window (TD50/EC50)” value came out at 17.
`c1cncc(C2(CN(Cc3cccn3-c3nccs3)Cc3cccn3-c3nccs3)CC2)c1` [Example 65, 1-[1-(pyridin-3-yl)cyclopropyl]-N,N-bis{[1-(1,3-thiazol-2-yl)-1H-pyrrol-2-yl]methyl}methanamine]: the “Window (TD50/EC50)” value stood at 273.
As for `c1cc(CN(CCC2(c3ccncc3)CC2)Cc2cccn2-c2nccs2)n(-c2nccs2)c1` [Example 66, 2-[1-(pyridin-4-yl)cyclopropyl]-N,N-bis{[1-(1,3-thiazol-2-yl)-1H-pyrrol-2-yl]methyl}ethanamine], the “Window (TD50/EC50)” value is given as 73.
The figure for `N#Cc1cc(CN(Cc2cccn2-c2nccs2)Cc2cccn2-c2nccs2)cs1` [Example 67, 4-[(bis{[1-(1,3-thiazol-2-yl)-1H-pyrrol-2-yl]methyl}amino)methyl]thiophene-2-carbonitrile] is greater than 389.
